Measured values from several laboratories, pooled; numbers as filed in NIAID ChemDB.

Shared fields: tests in culture; agent: Mycobacterium smegmatis; read-out: MIC

Rows are shuffled and stem from different studies.

smiles,strain or isolate,result
Cc1c(N2CC[C@H](NC(=O)[C@H](C)NC(=O)[C@H](C)N)C2)c(F)cn2c(=O)c(C(=O)O)cc(C3CC3)c12.Cl,ATCC114,1.56 µg/mL
CCCC1=C(CC)c2cc3[nH]c(cc4[nH]c(cc5nc(cc1n2)C(CC)=C5CC)c(CC)c4CC)c(CC)c3CC,LR222,10 µg/mL
O=C(O)c1cc([N+](=O)[O-])c2oc3ccc([N+](=O)[O-])cc3c(=O)c2c1,ATCC 607,>32 µg/mL
CNCC1CCN(c2c(F)cc3c(=O)c(C(=O)O)cn(C4CC4)c3c2Br)C1,ATCC 19420,≤0.03 µg/mL
COc1ccc(-c2c(C)c(C(=O)O)nc(-c3ccc4c(O)c(OC)c5c(c4n3)=NC(C)(C)N=5)c2N)c(O)c1OC,mc2155,25 µM
CNCC1CCN(c2nc3c(cc2F)c(=O)c(C(=O)O)cn3-c2ccc(F)cc2F)C1,ATCC 19420,0.5 µg/mL
Oc1ccccc1NCCNc1ccccc1O,ATCC 607,125 µg/mL
CC(C)=CCc1cc(/C=C/C(=O)c2cc(CC=C(C)C)c(O)cc2O)ccc1O,ATCC 700084,>39.06 µg/mL
Cc1ccc(-c2ccc(Cl)cc2)n1Cc1ccccc1,103599,>16 µg/mL
Nc1ccccc1O.O.O=C(O)C1[O][Sb][O]C1C(=O)O,mc2155,50 µM
C[C@H]1NCc2cc(-c3ccc4c(=O)c(C(=O)O)cn(C5CC5)c4c3OC(F)F)ccc21,A29663,0.06 µg/mL
OC1CCCCC1NCCNC1CCCCC1O,ATCC 607,250 µg/mL
CCCCCCn1c(-c2ccc(Cl)cc2)cc(CN2CCOCC2)c1C,103599,4 µg/mL
C[C@H](CO)NCCN[C@@H](C)CO,ATCC 607,6 µg/mL
Nc1nc(Cl)nc2c1ncn2[C@@H]1O[C@H](CO)[C@@H](O)[C@H]1O,mc2155,>100 µM
C=Cc1c(C)c2cc3nc(cc4nc(cc5[nH]c(cc1[nH]2)c(C)c5CC)C(C)=C4CCC(=O)O)C(CCC(=O)O)=C3C,LR222,20 µg/mL
OC(c1cc(C23CC4CC(CC(C4)C2)C3)nc2c(Cl)cc(Cl)cc12)C1CCCCN1,mc2155,25 µM
CN(C)[C@@H]1C(=O)C(C(N)=O)=C(O)[C@@]2(O)C(=O)C3=C(O)c4c(O)cccc4[C@@](C)(O)[C@H]3C[C@@H]12,PMN1 LFR (CCCP),4 µg/mL
Cc1c(N2CC[C@@H](N(C)C)C2)c(F)cn2c(=O)c(C(=O)O)cc(C3CC3)c12,ATCC114,0.2 µg/mL
O=C(O)c1cccc2oc3ccccc3c(=O)c12,ATCC 607,>32 µg/mL
Cc1c(N2CCCC(CN)C2)c(F)cn2c(=O)c(C(=O)O)cc(C3CC3)c12.Cl,ATCC114,1.56 µg/mL
CO[C@H]1/C=C/O[C@@]2(C)Oc3c(C)c(O)c4c(O)c(c(CN5CCN(C)CC5)c(O)c4c3C2=O)NC(=O)/C(C)=C\C=C\[C@H](C)[C@H](O)[C@@H](C)[C@@H](O)[C@@H](C)[C@H](OC(C)=O)[C@@H]1C,mc2155,>100 µM
CC1CN(c2c(F)cc3c(=O)c(C(=O)O)cn(C4CC4)c3c2Br)CCN1,ATCC 19420,0.06 µg/mL
Cc1ccc(-c2ccc(Cl)cc2)n1C1CCCCC1,103599,>16 µg/mL
O=C(O)c1cccc2c(=O)c3ccccc3oc12,ATCC 607,>32 µg/mL
CC1OC(CC(=O)O)CC2=C1C(=O)c1c(O)cccc1C2=O,mc2155,>100 µM
CC(CO)NCCNC(C)CO,ATCC 607,15 µg/mL
Cc1c(N2CCCC(C)(N)C2)c(F)cn2c(=O)c(C(=O)O)cc(C3CC3)c12.Cl,ATCC114,0.2 µg/mL
C1=Cc2cc3ccc(cc4ccc(cc5nc(cc1n2)C=C5)[nH]4)[nH]3,LR222,>40 µg/mL
CCCCCCn1c(C)c(CN2CCOCC2)c(CN2CCOCC2)c1-c1ccc(Cl)cc1,103599,>64 µg/mL
COC(=O)[C@@H]1[C@H](O)[C@H](C)C(O)[C@H](C)/C=C\C=C(/C)C(=O)Nc2c(C)c(OC(C)=O)c3c(c2O)C(=O)C(C)=C2OCOC(=C23)/C(C)=C/[C@@](C)(O)[C@H](O)[C@@H](C)[C@H]1OC(C)=O,mc2155,12.5 µM
Cc1c(N2CCC(C(C)(C)N)C2)c(F)cn2c(=O)c(C(=O)O)cc(C3CC3)c12,ATCC114,0.02 µg/mL
Nc1ccc2oc3ccc(C(=O)O)cc3c(=O)c2c1,ATCC 607,>32 µg/mL
Cc1c(CN2CCN(C)CC2)cc(-c2ccc(Cl)cc2)n1Cc1ccccc1,103599,8 µg/mL
CCC[C@@H](CO)NCCN[C@@H](CO)CCC,ATCC 607,60 µg/mL
CCCCCCCCCCCCCCCC[N+](C)(C)CC,MC^2 552 (ciprofloxacin-resistant),8 µg/mL
CC1CN(c2nc3c(cc2F)c(=O)c(C(=O)O)cn3-c2ccc(F)cc2F)CCN1,ATCC 19420,0.5 µg/mL
CC(=O)[C@]1(O)Cc2c(O)c3c(c(O)c2[C@@H](O[C@H]2C[C@H](N)[C@H](O)[C@H](C)O2)C1)C(=O)c1ccccc1C3=O,mc2155,3.125 µM
Cc1[nH]c(-c2ccc(Cl)cc2)cc1CN1CCN(C)CC1,103599,>64 µg/mL
CCn1cc(C(=O)O)c(=O)c2cc(F)c(N3CCC(CNC)C3)nc21,ATCC 19420,1 µg/mL
CCCCCCn1c(C)cc(CN2CCN(C)CC2)c1C,103599,16 µg/mL
CC(C)=CCc1cc(/C=C/C(=O)c2ccc(O)c(CC=C(C)C)c2O)ccc1O,ATCC 700084,9.76 µg/mL
CCCCCCn1c(C)ccc1C,103599,>16 µg/mL
COC(=O)c1cccc2oc3ccccc3c(=O)c12,ATCC 607,>32 µg/mL
Cc1c(CN2CCN(C)CC2)cc(-c2ccc(Cl)cc2)n1C1CCCCC1,103599,4 µg/mL
COc1c(N2CC(C)NC(C)C2)c(F)cc2c(=O)c(C(=O)O)cn(C3CC3)c12,ATCC 19420,0.13 µg/mL

A second listing of 6 rows from above:

{"smiles": "Nc1nc(Cl)nc2c1ncn2[C@@H]1O[C@H](CO)[C@@H](O)[C@H]1O", "strain or isolate": "mc2155", "result": ">100 µM"}
{"smiles": "CC(CO)NCCNC(C)CO", "strain or isolate": "ATCC 607", "result": "15 µg/mL"}
{"smiles": "CC(C)=CCc1cc(/C=C/C(=O)c2cc(CC=C(C)C)c(O)cc2O)ccc1O", "strain or isolate": "ATCC 700084", "result": ">39.06 µg/mL"}
{"smiles": "CN(C)[C@@H]1C(=O)C(C(N)=O)=C(O)[C@@]2(O)C(=O)C3=C(O)c4c(O)cccc4[C@@](C)(O)[C@H]3C[C@@H]12", "strain or isolate": "PMN1 LFR (CCCP)", "result": "4 µg/mL"}
{"smiles": "Cc1c(N2CC[C@@H](N(C)C)C2)c(F)cn2c(=O)c(C(=O)O)cc(C3CC3)c12", "strain or isolate": "ATCC114", "result": "0.2 µg/mL"}
{"smiles": "C[C@H]1NCc2cc(-c3ccc4c(=O)c(C(=O)O)cn(C5CC5)c4c3OC(F)F)ccc21", "strain or isolate": "A29663", "result": "0.06 µg/mL"}